The results in this text go back to paper PMC12510602.

Construct, isoform or probe ends are uncertain for at least one entry.

Data set [1] has as its system NcMYC (Nephotettix cincticeps). Description: EMSA. The conditions noted are these: 50 mM Tris-HCl pH 7.5, 5 mM EDTA, 10 mM MgCl2, 0.5 M NaCl, 5 mM DTT, 0.05 mg/mL poly(dI-dC), 20 ul, room temperature 30 min, 6% native PAGE, recombinant …. In general terms: In EMSA bound probe runs differently from free probe, usually more slowly.
In data set [2] the test system is NcSMARCB1 (Nephotettix cincticeps). The data set can be described thus: EMSA. The conditions noted are these: 50 mM Tris-HCl pH 7.5, 5 mM EDTA, 10 mM MgCl2, 0.5 M NaCl, 5 mM DTT, 0.05 mg/mL poly(dI-dC), 20 ul, room temperature 30 min; 6% native PAGE; recombinant …; protein details: His (Ni resin, pET28a); label: 5'-Cy5.

Consider “TTATAAGGAAAACTAGTTATTTTAGTTAAAAACGAAACACATGCATCACA (double strand) [NcATG5-Prob1]”, for which the binding result in data set [1] (label: 5'-Cy5 (FAM also mentioned)) was “binds”.
“CTCTCCTCCTTCCTCTCCGCTCCTCACCACGTGGGTTTGTTGAGTGGGAG (double strand) [NcATG8-Prob]”: the binding result in data set [1] (label: 5'-Cy5) is recorded as “binds”.
For the sequence “TTATGTTATGTATGTGAGTCAAGTGATCCGAAGCAATTGCAACTAACAAG (double strand) [NcATG5-Prob2]”, the binding result in data set [2] is “binds”.
